Anti-infective test results gathered from many reports (values: NIAID ChemDB through PubChem).

Common to all: tests in culture; species: Hepatitis C virus; measure: EC50

ECn: concentration that inhibits the pathogen or its effect by n%. Blank or dashed fields: not listed here. Conditions beyond the fields shown may differ between rows.

CCC[C@H](NC(=O)[C@@H]1[C@H]2CCC[C@H]2CN1C(=O)[C@@H](NC(=O)[C@@H](NC(=O)c1cnccn1)C1CCCCC1)C(C)(C)C)C(=O)C(=O)NC1CC1 ; strain or isolate: JCH2 ; cell line: Huh7.5 ; read by: antigen ; value: 0.635 µM
O=C1C[C@@H](c2ccc(O)cc2)Oc2cc(O)ccc21 ; strain or isolate: 2a ; cell line: Huh7.5 ; read by: microscopy / fluorescence ; value: 16.4 µg/mL
CC(C)OC(=O)[C@H](C)N[P@](=O)(OC[C@H]1O[C@@](C#N)(c2ccc3c(N)ncnn23)[C@](C)(O)[C@@H]1OC(=O)C(C)C)Oc1ccccc1 ; strain or isolate: 1b Con1 ; cell line: Huh7 replicon ; read by: luciferase ; value: 0.46 µM
CC1(C)[C@@H](O[C@H]2O[C@H](C(=O)O)[C@@H](O)[C@H](O)[C@H]2O[C@@H]2O[C@H](C(=O)O)[C@@H](O)[C@H](O)[C@H]2O)CC[C@]2(C)[C@H]3C(=O)C=C4[C@@H]5C[C@@](C)(C(=O)O)CC[C@]5(C)CC[C@@]4(C)[C@]3(C)CC[C@@H]12 ; strain or isolate: 2a ; cell line: Huh7.5 ; read by: microscopy / fluorescence ; value: 180 µg/mL
NC(=O)c1nn(Cc2cccc(NC(=O)Cc3ccccc3)c2)c2ccccc12 ; strain or isolate: J399EM ; cell line: Huh7.5.1 ; read by: fluorescence ; value: 0.539 µM
CCC[C@H](NC(=O)[C@@H]1[C@H]2CCC[C@H]2CN1C(=O)[C@@H](NC(=O)[C@@H](NC(=O)c1cnccn1)C1CCCCC1)C(C)(C)C)C(=O)C(=O)NC1CC1 ; strain or isolate: genotype 1b ; cell line: Huh7.5 ; read by: luciferase / reporter gene ; value: 0.1273 µM
C[C@@]1(O)[C@H](O)[C@@H](CO)O[C@H]1n1cnc2c(N)ncnc21 ; strain or isolate: 6a HK ; cell line: Huh7 replicon ; read by: luciferase ; value: 0.031 µM
COc1cc(C2C3CO[C@]4(O)C[C@H]2C=C([C@H]2Oc5cc(O)cc(O)c5C(=O)[C@@H]2O)[C@H]34)ccc1O ; strain or isolate: 1b ; value: >100 µM
CC1(C)[C@@H](O[C@H]2O[C@H](C(=O)O)[C@@H](O)[C@H](O)[C@H]2O[C@@H]2O[C@H](C(=O)O)[C@@H](O)[C@H](O)[C@H]2O)CC[C@]2(C)[C@H]3C(=O)C=C4[C@@H]5C[C@](C)(C(=O)O)CC[C@]5(C)CC[C@@]4(C)[C@]3(C)CC[C@@H]12 ; strain or isolate: 2a ; cell line: Huh7.5 ; read by: microscopy / fluorescence ; value: >30 µg/mL
C[C@@]1(O)[C@H](O)[C@@H](CO)O[C@H]1c1ccc2c(N)ncnn12 ; strain or isolate: GT3a ; cell line: Huh7.5 ; read by: PCR ; value: 0.42 µM
Oc1cc(O)c2c(c1)OC(c1ccc(O)c(O)c1)C(OC1(c3cc(O)c(O)c(O)c3)Oc3cc(O)cc(O)c3C(O)C1O)C2 ; strain or isolate: JFH-1 ; cell line: Huh7-1 ; read by: PCR ; value: 9.2 µM
C=CC(C)(C)c1cc(/C=C/C(=O)c2ccc(O)cc2)c(OC)cc1O ; strain or isolate: 2a ; cell line: Huh7.5 ; read by: microscopy / fluorescence ; value: 2.5 µg/mL
CCCN(CC(=O)NCc1ccccc1)C(=O)CCN1C(=O)[C@H](C)C2CC[C@H](C)C3CC[C@]4(C)OO[C@]32C1O4 ; cell line: Huh 5-2 ; read by: replicon ; value: >70 µM
NC(=O)c1nn(Cc2ccccc2NC(=O)c2ccccc2)c2ccccc12 ; strain or isolate: J399EM ; cell line: Huh7.5.1 ; read by: fluorescence ; value: 1.7 µM
C[C@H]1CCC2[C@@H](C)C(=O)N(CCC(=O)N(CC(=O)NC3CCCCC3)C3CCCC3)C3OC4(C)CCC1[C@@]23OO4 ; cell line: Huh 5-2 ; read by: replicon ; value: 7 µM
Cc1ccccc1C(=O)Nc1cccc(Cn2nc(C(N)=O)c3ccccc32)c1 ; strain or isolate: J399EM ; mutations: Luciferase reporter gene ; cell line: Huh7.5.1 ; read by: luciferase / replicon ; value: 0.032 µM
COc1ccc2c(O[C@@H]3C[C@H]4C(=O)N[C@]5(C(=O)NS(=O)(=O)C6CC6)C[C@H]5/C=C\CCCCN(C)C(=O)[C@@H]4C3)cc(-c3nc(C(C)C)cs3)nc2c1C ; strain or isolate: JCH2 ; cell line: Huh7.5 ; read by: antigen ; value: 0.101 µM
CC[C@H](C)C(=O)O[C@H]1C[C@H](O)C=C2C=C[C@H](C)C(CC[C@@H](O)C[C@H](O)CC(=O)O)[C@H]21 ; cell line: Huh 9-13 ; read by: luciferase / replicon ; value: >20 µM
CC1CCC(C(=O)N(c2cc(C#CC(C)(C)C)sc2C(=O)O)C2CCC(O)CC2)CC1 ; strain or isolate: GT5a ; cell line: Huh7-Lunet ; read by: luciferase ; value: 0.013 µM
Fc1ccccc1-c1nc2ccn(Cc3ccc(-c4ccc(C(F)(F)F)cc4C(F)(F)F)nn3)cc-2n1 ; strain or isolate: Con1 ; cell line: 1C ; read by: luciferase ; value: 0.0014 µM
C[C@H]1CCC2[C@@H](C)C(=O)N(CCC(=O)N(CC(=O)NCc3ccccc3)c3ccccc3)C3O[C@]4(C)CCC1[C@@]23OO4 ; cell line: Huh 5-2 ; read by: replicon ; value: 6 µM
O=C1C[C@@H](c2ccc(OC3O[C@H](CO)[C@@H](O)[C@H](O)[C@H]3O)cc2)Oc2cc(O)ccc21 ; strain or isolate: 2a ; cell line: Huh7.5 ; read by: microscopy / fluorescence ; value: 75 µg/mL
CC1=CC[C@H](C(=O)N(c2cc(C#CC(C)(C)C)sc2C(=O)O)C2CCC(O)(CO[C@H]3CCOC3)CC2)CC1 ; strain or isolate: GT1b ; cell line: 1C ; read by: luciferase ; value: 0.0035 µM
CCC[C@H](NC(=O)[C@@H]1[C@H]2CCC[C@H]2CN1C(=O)[C@@H](NC(=O)[C@@H](NC(=O)c1cnccn1)C1CCCCC1)C(C)(C)C)C(=O)C(=O)NC1CC1 ; strain or isolate: 1b C159S ; read by: luciferase ; value: 0.623 µM
NC(=O)c1nn(Cc2cccc(NC(=O)c3cccnc3)c2)c2ccccc12 ; strain or isolate: J399EM ; cell line: Huh7.5.1 ; read by: fluorescence ; value: 0.267 µM
CC(C)CN(CC(=O)NC(C)(C)CC(C)(C)C)C(=O)CCN1C(=O)[C@H](C)C2CC[C@H](C)C3CCC4(C)OO[C@]32C1O4 ; cell line: Huh 5-2 ; read by: replicon ; value: 5 µM
COc1ccc([C@@H]2Oc3ccc([C@H]4Oc5cc(O)cc(O)c5C(=O)[C@@H]4O)cc3O[C@H]2CO)cc1O ; strain or isolate: 1b ; value: 53.9 µM
CC1=CC[C@H](C(=O)N(c2cc(C#CC(C)(C)C)sc2C(=O)O)C2CCC(O)(CO[C@H]3CCOC3)CC2)CC1 ; strain or isolate: GT1b ; cell line: Huh7-Lunet ; read by: luciferase ; value: 0.011 µM
CCC[C@H](NC(=O)[C@@H]1[C@H]2CCC[C@H]2CN1C(=O)[C@@H](NC(=O)[C@@H](NC(=O)c1cnccn1)C1CCCCC1)C(C)(C)C)C(=O)C(=O)NC1CC1 ; strain or isolate: GT1b ; cell line: 1C ; read by: luciferase ; value: 0.429 µM
CCCCn1cnc2c(c(CC#N)nn2-c2ccccc2)c1=N ; strain or isolate: sg2a (JFH) ; cell line: Huh7-1 ; read by: PCR ; value: 7.3 µM
C[C@@]1(O)[C@H](O)[C@@H](CO)O[C@H]1n1cnc2c(N)ncnc21 ; cell line: Huh7 ; setting: 24 h ; value: 0.25 µM
COC(=O)N[C@H](C(=O)N1CCC[C@H]1c1ncc(-c2ccc(-c3ccc(-c4cnc([C@@H]5CCCN5C(=O)[C@@H](NC(=O)OC)C(C)C)[nH]4)cc3)cc2)[nH]1)C(C)C ; strain or isolate: J399EM ; cell line: Huh7.5.1 ; read by: GFP / fluorescence ; value: 0.000054 µM
O=C1OC2(c3ccc(O)cc3Oc3cc(O)ccc32)c2c1c(-c1ccccc1)c(-c1ccccc1)c(-c1ccccc1)c2-c1ccccc1 ; strain or isolate: sg2a (JFH) ; cell line: Huh7-1 ; read by: PCR ; value: 21.1 µM
COc1c(C)c2c(c(O)c1CC(=O)O)C(=O)OC2 ; strain or isolate: JFH-1 ; cell line: Huh7.5.1 ; read by: luciferase / replicon ; value: 0.468 µM
C=C[C@@H]1C[C@]1(NC(=O)[C@@H]1C[C@@H]2CN1C(=O)[C@H](C(C)(C)C)NC(=O)C[C@@H]1C[C@H]1CCCCCc1nc3ccc(OC)cc3nc1O2)C(=O)NS(=O)(=O)C1CC1 ; strain or isolate: GT1b ; cell line: 1C ; read by: luciferase ; value: 0.0008 µM
CCC[C@H](NC(=O)[C@@H]1[C@H]2CCC[C@H]2CN1C(=O)[C@@H](NC(=O)[C@@H](NC(=O)c1cnccn1)C1CCCCC1)C(C)(C)C)C(=O)C(=O)NC1CC1 ; strain or isolate: JFH-1 ; cell line: Huh7.5.1 ; read by: luciferase / replicon ; value: 0.67 µM
O=C(O)c1cccc([As]=[As]c2cccc(C(=O)O)c2)c1 ; strain or isolate: sg1a (H77) ; cell line: Huh7-1 ; read by: PCR ; value: 1.9 µM
CNC(=O)c1c(-c2ccc(F)cc2)oc2cc(N(CCO)S(C)(=O)=O)c(C3CC3)cc12 ; strain or isolate: GT1b ; cell line: 1C ; read by: luciferase ; value: 0.023 µM

For reference, 5 entries again:

compound	strain or isolate	mutations	cell line	read by	setting	value
CC1(C)[C@@H](O[C@H]2O[C@H](C(=O)O)[C@@H](O)[C@H](O)[C@H]2O[C@@H]2O[C@H](C(=O)O)[C@@H](O)[C@H](O)[C@H]2O)CC[C@]2(C)[C@H]3C(=O)C=C4[C@@H]5C[C@](C)(C(=O)O)CC[C@]5(C)CC[C@@]4(C)[C@]3(C)CC[C@@H]12	2a		Huh7.5	microscopy / fluorescence		>30 µg/mL
COc1cc(C2C3CO[C@]4(O)C[C@H]2C=C([C@H]2Oc5cc(O)cc(O)c5C(=O)[C@@H]2O)[C@H]34)ccc1O	1b					>100 µM
C[C@@]1(O)[C@H](O)[C@@H](CO)O[C@H]1c1ccc2c(N)ncnn12	GT3a		Huh7.5	PCR		0.42 µM
CC1CCC(C(=O)N(c2cc(C#CC(C)(C)C)sc2C(=O)O)C2CCC(O)CC2)CC1	GT5a		Huh7-Lunet	luciferase		0.013 µM
CC1(C)[C@@H](O[C@H]2O[C@H](C(=O)O)[C@@H](O)[C@H](O)[C@H]2O[C@@H]2O[C@H](C(=O)O)[C@@H](O)[C@H](O)[C@H]2O)CC[C@]2(C)[C@H]3C(=O)C=C4[C@@H]5C[C@@](C)(C(=O)O)CC[C@]5(C)CC[C@@]4(C)[C@]3(C)CC[C@@H]12	2a		Huh7.5	microscopy / fluorescence		180 µg/mL